The record followed here is ChEMBL document CHEMBL2401726, “Expanding chemical diversity of conotoxins: peptoid-peptide chimeras of the sodium channel blocker μ-KIIIA and its selenopeptide analogues” (2013).

Protein sequences, listed by entry. Tags and fused reporters are not part of them.
UniProt P04775, whole entry, looked up: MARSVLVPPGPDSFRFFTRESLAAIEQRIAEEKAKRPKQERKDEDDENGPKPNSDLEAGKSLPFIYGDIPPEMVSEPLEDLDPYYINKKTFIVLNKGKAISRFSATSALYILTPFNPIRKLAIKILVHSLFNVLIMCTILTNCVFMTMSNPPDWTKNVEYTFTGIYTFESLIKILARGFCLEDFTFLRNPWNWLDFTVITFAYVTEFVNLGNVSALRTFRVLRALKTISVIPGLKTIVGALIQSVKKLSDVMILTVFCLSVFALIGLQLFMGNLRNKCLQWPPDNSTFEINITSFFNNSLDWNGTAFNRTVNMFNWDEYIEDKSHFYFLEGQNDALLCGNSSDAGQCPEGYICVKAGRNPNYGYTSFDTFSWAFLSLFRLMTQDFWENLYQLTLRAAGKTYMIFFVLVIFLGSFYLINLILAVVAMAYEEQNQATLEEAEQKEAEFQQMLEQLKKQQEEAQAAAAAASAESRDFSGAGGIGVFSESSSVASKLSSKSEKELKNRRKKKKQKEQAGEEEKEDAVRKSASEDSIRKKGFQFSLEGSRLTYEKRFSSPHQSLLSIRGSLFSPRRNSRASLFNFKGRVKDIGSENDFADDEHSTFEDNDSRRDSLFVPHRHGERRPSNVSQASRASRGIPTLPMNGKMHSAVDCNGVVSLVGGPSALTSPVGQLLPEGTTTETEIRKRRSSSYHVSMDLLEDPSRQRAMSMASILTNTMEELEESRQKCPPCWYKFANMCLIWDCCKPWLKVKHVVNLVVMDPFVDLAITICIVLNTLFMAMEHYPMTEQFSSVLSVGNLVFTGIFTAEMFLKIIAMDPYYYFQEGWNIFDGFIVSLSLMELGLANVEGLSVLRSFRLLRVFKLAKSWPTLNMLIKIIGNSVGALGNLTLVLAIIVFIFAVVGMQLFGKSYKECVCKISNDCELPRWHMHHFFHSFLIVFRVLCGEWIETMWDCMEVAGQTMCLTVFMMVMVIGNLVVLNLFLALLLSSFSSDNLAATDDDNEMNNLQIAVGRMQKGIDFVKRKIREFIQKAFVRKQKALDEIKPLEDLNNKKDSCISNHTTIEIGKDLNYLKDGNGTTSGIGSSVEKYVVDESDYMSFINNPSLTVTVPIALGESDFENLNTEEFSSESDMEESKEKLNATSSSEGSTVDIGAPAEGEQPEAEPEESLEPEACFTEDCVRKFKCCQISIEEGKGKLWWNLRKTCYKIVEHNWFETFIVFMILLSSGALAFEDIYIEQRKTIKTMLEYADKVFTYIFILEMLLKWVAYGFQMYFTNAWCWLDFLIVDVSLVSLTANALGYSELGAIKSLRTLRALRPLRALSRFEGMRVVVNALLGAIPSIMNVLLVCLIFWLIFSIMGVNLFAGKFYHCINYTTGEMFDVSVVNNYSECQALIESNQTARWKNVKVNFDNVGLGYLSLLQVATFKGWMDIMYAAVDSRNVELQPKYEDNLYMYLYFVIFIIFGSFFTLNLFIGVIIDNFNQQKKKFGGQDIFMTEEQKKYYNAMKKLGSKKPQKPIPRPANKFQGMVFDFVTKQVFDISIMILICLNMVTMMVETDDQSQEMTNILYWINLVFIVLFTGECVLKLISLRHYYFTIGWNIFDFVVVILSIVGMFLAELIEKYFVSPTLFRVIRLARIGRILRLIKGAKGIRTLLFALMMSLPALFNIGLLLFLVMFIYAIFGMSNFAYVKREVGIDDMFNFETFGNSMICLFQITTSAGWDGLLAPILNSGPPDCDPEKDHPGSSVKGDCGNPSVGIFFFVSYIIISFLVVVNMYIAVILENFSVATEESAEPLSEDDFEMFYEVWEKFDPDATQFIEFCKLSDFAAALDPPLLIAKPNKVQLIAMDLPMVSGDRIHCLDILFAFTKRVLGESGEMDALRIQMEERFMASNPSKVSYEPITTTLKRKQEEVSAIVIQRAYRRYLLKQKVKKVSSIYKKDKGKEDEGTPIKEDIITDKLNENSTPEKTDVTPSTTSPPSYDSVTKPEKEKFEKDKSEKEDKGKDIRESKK

The assay addresses Sodium channel protein type 2 subunit alpha (Rattus norvegicus, UniProt P04775). To be noted: oocyte.
`CCCCCCCCN1CC(=O)N[C@@H](Cc2c[nH]c3ccccc23)C(=O)N[C@H]2CSSC[C@H](N)C(=O)N[C@H]3CSSC[C@H](NC(=O)[C@H](CCCNC(=N)N)NC(=O)[C@H](CO)NC(=O)[C@H](Cc4cnc[nH]4)NC(=O)[C@H](CC(=O)O)NC(=O)[C@H](CCCNC(=N)N)NC2=O)C(=O)N[C@H](C(N)=O)CSSC[C@H](NC(=O)[C@H](CC(N)=O)NC3=O)C(=O)N[C@@H](CO)C(=O)N[C@@H](CO)C1=O` gave a Kd of 0.4 µM.

Consider `C[C@H](N)C(=O)NC1C[Se][Se]CC2NC(=O)[C@H](CCCNC(=N)N)NC(=O)[C@H](CO)NC(=O)[C@H](Cc3cnc[nH]3)NC(=O)[C@H](CC(=O)O)NC(=O)[C@H](CCCNC(=N)N)NC(=O)[C@H](C)NC(=O)[C@H](Cc3c[nH]c4ccccc34)NC(=O)CN(C)C(=O)[C@H](CO)NC(=O)[C@H](CO)NC(=O)[C@H](CSSC[C@@H](C(N)=O)NC2=O)NC(=O)[C@H](CC(N)=O)NC1=O` (stereo partly specified), for which the Kd came to 1 µM.

Regarding `CCCCCCCCN1CC(=O)N[C@@H](Cc2c[nH]c3ccccc23)C(=O)N[C@@H](C)C(=O)N[C@@H](CCCNC(=N)N)C(=O)N[C@@H](CC(=O)O)C(=O)N[C@@H](Cc2cnc[nH]2)C(=O)N[C@@H](CO)C(=O)N[C@@H](CCCNC(=N)N)C(=O)NC2C[Se][Se]CC(NC(=O)[C@H](C)N)C(=O)N[C@@H](CC(N)=O)C(=O)N[C@@H](CSSC[C@@H](C(N)=O)NC2=O)C(=O)N[C@@H](CO)C(=O)N[C@@H](CO)C1=O` (stereo partly specified), the Kd was 0.5 µM.

For `CN1CC(=O)N[C@@H](Cc2c[nH]c3ccccc23)C(=O)N[C@H]2CSSC[C@H](N)C(=O)N[C@H]3CSSC[C@H](NC(=O)[C@H](CCCNC(=N)N)NC(=O)[C@H](CO)NC(=O)[C@H](Cc4cnc[nH]4)NC(=O)[C@H](CC(=O)O)NC(=O)[C@H](CCCNC(=N)N)NC2=O)C(=O)N[C@H](C(N)=O)CSSC[C@H](NC(=O)[C@H](CC(N)=O)NC3=O)C(=O)N[C@@H](CO)C(=O)N[C@@H](CO)C1=O`, binding was put at a Kd of 0.055 µM.

`CCCCN1CC(=O)N[C@@H](Cc2c[nH]c3ccccc23)C(=O)N[C@H]2CSSC[C@H](N)C(=O)N[C@H]3CSSC[C@H](NC(=O)[C@H](CCCNC(=N)N)NC(=O)[C@H](CO)NC(=O)[C@H](Cc4cnc[nH]4)NC(=O)[C@H](CC(=O)O)NC(=O)[C@H](CCCNC(=N)N)NC2=O)C(=O)N[C@H](C(N)=O)CSSC[C@H](NC(=O)[C@H](CC(N)=O)NC3=O)C(=O)N[C@@H](CO)C(=O)N[C@@H](CO)C1=O`: binding was put at a Kd of 0.29 µM.

For the molecule `CCCCN1CC(=O)N[C@@H](Cc2c[nH]c3ccccc23)C(=O)N[C@@H](C)C(=O)N[C@@H](CCCNC(=N)N)C(=O)N[C@@H](CC(=O)O)C(=O)N[C@@H](Cc2cnc[nH]2)C(=O)N[C@@H](CO)C(=O)N[C@@H](CCCNC(=N)N)C(=O)NC2C[Se][Se]CC(NC(=O)[C@H](C)N)C(=O)N[C@@H](CC(N)=O)C(=O)N[C@@H](CSSC[C@@H](C(N)=O)NC2=O)C(=O)N[C@@H](CO)C(=O)N[C@@H](CO)C1=O` (stereo partly specified), binding was put at a Kd of 1.4 µM.
